# Test results reported in article PMC6393602 (The Journal of Biological Chemistry, 2018).
# By UniProt entry, the sequences of proteins in these tests, tags left out. Residues count along the entry.
# UniProt A0A3A6VV34, 1-639: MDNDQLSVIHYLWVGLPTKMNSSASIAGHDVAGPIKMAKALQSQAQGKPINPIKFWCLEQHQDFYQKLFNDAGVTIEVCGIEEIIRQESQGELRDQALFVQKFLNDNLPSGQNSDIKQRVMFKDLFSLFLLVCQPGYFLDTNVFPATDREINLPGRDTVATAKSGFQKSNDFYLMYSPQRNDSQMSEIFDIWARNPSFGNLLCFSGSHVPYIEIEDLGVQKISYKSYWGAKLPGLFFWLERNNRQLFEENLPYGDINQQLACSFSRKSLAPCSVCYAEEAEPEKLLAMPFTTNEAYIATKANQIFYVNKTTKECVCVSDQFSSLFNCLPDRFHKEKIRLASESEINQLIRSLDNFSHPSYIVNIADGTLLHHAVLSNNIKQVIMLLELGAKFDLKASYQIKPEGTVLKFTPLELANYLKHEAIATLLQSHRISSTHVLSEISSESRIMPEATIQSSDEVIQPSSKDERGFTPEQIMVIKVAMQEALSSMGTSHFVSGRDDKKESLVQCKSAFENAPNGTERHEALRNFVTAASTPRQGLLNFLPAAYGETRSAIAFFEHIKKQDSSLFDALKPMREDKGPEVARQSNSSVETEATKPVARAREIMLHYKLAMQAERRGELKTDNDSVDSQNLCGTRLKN
# Molecular target: T1, LtpM (Legionella pneumophila, UniProt A0A3A6VV34)
# T1 construct: gene D1H98_02725
substance,measurement,value
biotin-PI3P,Kd,591 ± 203 nM
